Results: paper PMC4113996, “Prediction and characterization of enzymatic activities guided by sequence similarity and genome neighborhood networks” (eLife, 2014)

System: O=C(O)[C@@H]1C[C@@H](O)CN1
Experiment: purified protein
Details: pH 8.0; 25.0 °C

Substance “Oant_0439 (A6WW16) (Brucella anthropi ATCC 49188)” has a Km of 1300 ± 200 µM.
